Results of unrelated studies side by side (data: NIAID ChemDB).

All rows: tests in culture; agent: Mycobacterium tuberculosis

Neighbouring rows are from separate reports.

SMILES	setting	strain or isolate	dose	read by	mutations	measure	value
S=C(Nc1ccccc1)c1ccc(Cl)cc1		H37Rv				MIC	125 µM
CC(=O)NS(=O)(=O)c1ccc(NC(=O)COC(=O)c2cccc3c(=O)c4ccccc4[nH]c23)cc1		H37Rv		resazurin		MIC bound	>6.25 µg/mL
COc1cc(Cc2cnc(N)nc2N)cc(OC)c1OC		H37Rv				MIC	>100 µM
c1ccc(CSc2nc3ccccc3o2)nc1		My 331/88				MIC	32 µM
Cc1ccc(C(=S)Nc2ccc(Br)cc2)cc1		H37Rv				MIC	125 µM
CCN(CC)CC(=O)N/N=C\C(=O)c1ccc(-c2ccccc2)cc1						MIC	>50 µg/mL
CCNC(=S)N/N=C(\c1ccccc1)c1ccccn1		H37Rv	12.5 µg/mL	BACTEC		inhibition	88%
CON=C1CCN(c2nc(=O)c3cc(C(F)(F)F)cc([N+](=O)[O-])c3s2)CC1		H37Rv		resazurin		MIC90	0.029 µg/mL
CO[C@H]1/C=C/O[C@@]2(C)Oc3c(C)c(O)c4c(O)c(cc(O)c4c3C2=O)NC(=O)/C(C)=C\C=C\[C@H](C)[C@H](O)[C@@H](C)[C@@H](O)[C@@H](C)[C@H](OC(C)=O)[C@@H]1C		H37Rv (amithiozone-resistant)				MIC	6.3 µg/mL
O=[N+]([O-])c1cn2c(n1)OC[C@@H](OCc1ccc(C#Cc3ccc(C(F)(F)F)nc3)nc1)C2				resazurin		MIC90	0.7 µM
Cc1ccc2[nH]c3c(C)c4ccncc4c(C)c3c2c1		H37Rv		resazurin / fluorescence		MIC	>100 µM
O=C(CN1CCCC1)N/N=C\C(=O)c1ccc(Oc2ccccc2)cc1						MIC	>50 µg/mL
CCON=C1CN(c2nc(=O)c3cc(C(F)(F)F)cc([N+](=O)[O-])c3s2)C1		16892 clinical isolate		resazurin		MIC90	0.016 µg/mL
COc1ccc(C(=S)Nc2ccc(Br)cc2)cc1		H37Rv				MIC	2000 µM
OC1C2COC(O2)C2OC(c3ccccc3)OC12		H37Rv	12.5 µg/mL	BACTEC		inhibition	0%
CO/C(=N\N=C\c1ccc(OC)cc1OC)c1ccncc1		6 PI				MIC	>20 µg/mL
CN[C@@H]1[C@H](O[C@H]2[C@H](O[C@H]3[C@H](O)[C@@H](O)[C@H](N=C(N)N)[C@@H](O)[C@@H]3N=C(N)N)O[C@@H](C)[C@]2(O)C=O)O[C@@H](CO)[C@H](O)[C@H]1O		3426		resazurin		MIC	1000 µg/mL
O=C(Nc1ccc(Br)cc1)c1ccc(Br)cc1OS(=O)(=O)c1ccccc1	14 d	H37Rv				MIC	8 µM
NNC(=O)c1ccncc1		Clinical isolate 6				MIC	2 µg/mL
N#Cc1cc(SCc2ccccn2)ccn1		My 331/88				MIC	8 µM
CN[C@@H]1[C@H](O[C@H]2[C@H](O[C@H]3[C@H](O)[C@@H](O)[C@H](N=C(N)N)[C@@H](O)[C@@H]3N=C(N)N)O[C@@H](C)[C@]2(O)C=O)O[C@@H](CO)[C@H](O)[C@H]1O		Clinical isolate 7				MIC	>100 µg/mL
CC(=O)NC[C@H]1CN(c2ccc(N3C=NN(C(N)=O)CC3)c(F)c2)C(=O)O1		20 clinical isolates		resazurin		MIC90	250 µg/mL
C/C(=N\NC(=O)c1ccncc1)c1cccc(F)c1		16PI				MIC	>20 µg/mL
CC1=NN(c2ccc(S(=O)(=O)O)cc2)C(=O)C1N=Nc1ccc(-c2ccc(N=Nc3ccc(OS(=O)(=O)c4ccc(C)cc4)cc3)c(S(=O)(=O)O)c2)cc1		H37Rv		BACTEC		MIC bound	>12.8 µg/mL
CO/C(=N\N=C\c1ccccc1)c1ccncc1		H37Rv				MIC	>20 µg/mL
N#Cc1cc(SCc2ccncc2)ccn1		My 331/88				MIC	1000 µM
C/C(=N\NC(=O)c1cccnc1)[C@H]1CC[C@H]2[C@@H]3CC[C@H]4C[C@@H](O)CC[C@]4(C)[C@H]3CC[C@]12C		H37Rv		BACTEC		MIC	≥12.5 µg/mL
NNC(=O)c1ccncc1		Jal 2261		resazurin / fluorescence	MDR	MIC	>100 µg/mL
CCn1cc(C(=O)O)c(=O)c2ccc(C)nc21		H37Rv			gyrA mutation A90V gyrB mutation Q540V	MIC90	>50 µM
C/C(=N\NC(=O)c1ccncc1)c1cccc(Cl)c1		H37Rv				MIC	>20 µg/mL
COC(=O)N[C@H]1CN(c2ccc(N3C=NN(C4=NC(=O)CS4)CC3)c(F)c2)C(=O)O1		H37Rv		GFP / reporter gene		MIC	125 µg/mL
CO/C(=N\N=C\c1ccc(Cl)cc1)c1ccncc1		6 PI				MIC	>20 µg/mL
NC(=S)c1cc(SCc2cccc3ccccc23)ccn1		My 331/88				MIC	2 µM
O=C(CN1CCOCC1)N/N=C\C(=O)c1ccc(Oc2ccccc2)cc1						MIC	>50 µg/mL
C=CC[P@]1(=O)O[C@@H](c2ccccc2)[C@H](C)N1C(C)C		H37Rv		BACTEC		MIC bound	>12.5 µg/mL
Cc1ccc(C(=S)Nc2ccccc2)cc1		H37Rv				MIC	125 µM
NP(N)(=O)c1ccc(Cl)cc1		H37Rv		resazurin		MIC bound	>6.25 µg/mL
CO/C(=N\N=C\c1cccc(C(C)(F)F)c1)c1ccncc1		6 PI				MIC	>20 µg/mL
O=c1c2nccnc2nc2n1CCS2		H37Rv				MIC bound	>6.25 µg/mL
Cc1ccc2[nH]c3c(C)c4cc[n+](C)cc4c(C)c3c2c1		MYC 431		resazurin / fluorescence	XDR	MIC	1.5 µM
O=C(CCSC(=S)Nc1ccc(Cl)cc1)NNc1ccccc1		H37Rv	128 µg/mL	BACTEC		inhibition	91%
O=C(Nc1cccc(C(F)(F)F)c1)c1cc(Cl)ccc1OS(=O)(=O)c1ccccc1	14 d	H37Rv				MIC	2 µM
CC(=O)N[C@H]1CN(c2ccc(N3C=NN(C)CC3)c(F)c2)C(=O)O1		H37Rv		GFP / reporter gene		MIC	250 µg/mL
O=C(Oc1ccc(Cl)cc1C(=O)Nc1ccc(Cl)c(Cl)c1)c1cnccn1	21 d	multidrug resistant 9449/2006				MIC	0.5 µM
c1cncc(CSc2nc3ccccc3[nH]2)c1		My 331/88				MIC	500 µM
CO/C(=N\N=C\c1ccc(OC)c(F)c1)c1ccncc1		6 PI				MIC	>20 µg/mL
O=[N+]([O-])c1cn2c(n1)OC[C@@H](OCc1ccc(/C=C/c3ccc(F)cc3)cc1)C2				resazurin		MIC90	0.02 µM
CCOC(=O)c1cn(C)c2c(cc([N+](=O)[O-])c3cccnc32)c1=O		BCG			gyrA mutation A90V	MIC90	2.35 µM
O=C(Nc1ccc(Cl)c(Cl)c1)c1cc(Cl)ccc1OS(=O)(=O)c1ccccc1	21 d	H37Rv				MIC	2 µM
O=C1CN(c2ccccc2)C(=O)CN1Nc1ccccc1		H37Rv		BACTEC		MIC bound	>12.5 µg/mL
O=c1nc(N2CCC(=NOCc3ccccc3)CC2)sc2c([N+](=O)[O-])cc(C(F)(F)F)cc12		H37Rv		resazurin		MIC90	<0.016 µg/mL
CC1(C)C=CC=C(C(=O)O)C=C1		H37Rv		BACTEC		MIC	≥128 µg/mL
O=C(Nc1cccc(Cl)c1)c1cc(Cl)ccc1OS(=O)(=O)c1ccccc1	14 d	H37Rv				MIC	4 µM
Cc1cc(Cc2cc(C)c(O)c(C(=O)O)c2)cc(C(=O)O)c1O		H37Rv		BACTEC		MIC bound	>12.5 µg/mL
CO/C(=N\N=C\c1ccc(OC)c(OC)c1)c1ccncc1		16PI				MIC	>20 µg/mL
S=C(Nc1ccc(Cl)cc1)c1ccccc1		H37Rv				MIC	61.9 µM
CN(Cc1ccc(CO[C@@H]2COc3nc([N+](=O)[O-])cn3C2)cc1)c1ccc(OC(F)(F)F)cc1				low oxygen		MIC90	0.45 µM
COC(=O)N[C@H]1CN(c2ccc(N3C=NN(C)CC3)c(F)c2)C(=O)O1		20 clinical isolates		resazurin		MIC90	1000 µg/mL
O=C(Nc1ccc(C(F)(F)F)cc1)c1ccc(Cl)cc1OS(=O)(=O)c1ccccc1	14 d	H37Rv				MIC	2 µM
O=S1(=O)NC2CCC3NS(=O)(=O)NC4CCC(N1)N4S(=O)(=O)N23		H37Rv	12.5 µg/mL	BACTEC		inhibition	4%
COc1ccc(C(=S)Nc2ccccc2)cc1		H37Rv				MIC	61.9 µM
Nc1ccc(C(=O)O)c(O)c1		Clinical isolate 8				MIC	5 µg/mL
O=C(Oc1ccc(Cl)cc1C(=O)Nc1cccc(C(F)(F)F)c1)c1cnccn1	14 d	multidrug resistant 9449/2006				MIC	1 µM
O=c1c2cc([N+](=O)[O-])cnc2sn1-c1ccc([N+](=O)[O-])cc1		H37Rv		resazurin		MIC bound	>6.25 µg/mL
S=C(Nc1ccc(Cl)cc1)c1ccc(Cl)cc1		H37Rv				MIC	125 µM
NNC(=O)c1ccncc1		H37Rv		resazurin		MIC	30 µg/mL
O=[N+]([O-])c1cn2c(n1)OC[C@@H](OCc1ccc(N3CCC(Oc4ccc(C(F)(F)F)nc4)CC3)cc1)C2				low oxygen		MIC90	0.95 µM
COc1ccc(C(=S)Nc2ccc(C3CCCCC3)cc2)cc1		H37Rv				MIC	31 µM
Cc1ccc2nc(SCc3ccncc3)[nH]c2c1		My 331/88				MIC	125 µM
Cc1c2cnccc2c(C)c2c1c1ccccc1n2CCNCc1ccccc1		H37Rv		resazurin		MIC	0.78 µg/mL
O=C(Oc1cc(Cl)ccc1C(=O)Nc1ccc(C(F)(F)F)cc1)c1cnccn1	14 d	multidrug resistant 53/2009				MIC	0.125 µM
O=c1nc(N2CC(=NOCc3ccccc3)C2)sc2c([N+](=O)[O-])cc(C(F)(F)F)cc12		16802 clinical isolate		resazurin		MIC90	0.016 µg/mL
CN[C@@H]1[C@H](O[C@H]2[C@H](O[C@H]3[C@H](O)[C@@H](O)[C@H](N=C(N)N)[C@@H](O)[C@@H]3N=C(N)N)O[C@@H](C)[C@]2(O)C=O)O[C@@H](CO)[C@H](O)[C@H]1O		1 isolates				MIC	<1 µg/mL
S=C(Nc1ccc(Br)cc1)c1ccccc1		H37Rv				MIC	15 µM
O=[N+]([O-])c1cn2c(n1)OC[C@@H](OCc1ccc(Oc3ccc(F)cc3)cc1)C2				resazurin		MIC90	0.045 µM
CCC1(Cc2ccc(OC)c(OC)c2)C=[N+]([O-])OC(OC2CCCCC2c2ccccc2)C1OC(C)=O		H37Rv	6.25 µg/mL	resazurin		inhibition	66%
O=C(CN1CCCCC1)N/N=C\C(=O)c1ccc(Oc2ccccc2)cc1						MIC	>50 µg/mL
CC(=O)OC(C)(C)/C=C/C(=O)C(C)(O)C1C(O)CC2(C)C3CC=C4C(CC(O)C(=O)C4(C)C)C3(C)C(=O)CC12C		H37Rv	12.8 µg/mL	BACTEC		inhibition	-2%
C/C(=N\NC(=O)c1ccncc1)c1ccccc1F		6 PI				MIC	>20 µg/mL
CC(=O)NC[C@H]1CN(c2ccc(N3C=NOCC3)c(F)c2)C(=O)O1		H37Rv		GFP / reporter gene		MIC	125 µg/mL
Cn1c(=O)c2c(nc3sc4c(n32)C(=O)c2c(O)ccc(O)c2C4=O)n(C)c1=O		H37Rv		BACTEC		MIC bound	>12.5 µg/mL
O=C(Oc1ccc(Cl)cc1C(=O)Nc1ccc(C(F)(F)F)cc1)c1cnccn1	21 d	multidrug resistant 234/2005				MIC	0.25 µM
CCOP(=O)(OCC)/C(C#N)=C/c1ccc(-c2ccc(F)cc2F)o1		H37Rv		resazurin		MIC bound	>6.25 µg/mL
O=C(Nc1ccc(C(F)(F)F)cc1)c1cc(Cl)ccc1OS(=O)(=O)c1ccccc1	14 d	H37Rv				MIC	1 µM
CO/N=C1\CCCN(c2nc(=O)c3cc(C(F)(F)F)cc([N+](=O)[O-])c3s2)CC1		16892 clinical isolate		resazurin		MIC90	0.031 µg/mL
COc1cc(OC)cc(C2=NNC3N=NC(=S)N3N2)c1		H37Rv		BACTEC		MIC bound	>12.5 µg/mL
O=C(Oc1ccc(Br)cc1C(=O)Nc1ccc(C(F)(F)F)cc1)c1cnccn1	14 d	extensively drug resistant Praha 131				MIC	0.25 µM
CN(CC1CCCCC1)C1CCN(c2nc(=O)c3cc(C(F)(F)F)cc([N+](=O)[O-])c3s2)C1		16802 clinical isolate		resazurin		MIC90	0.016 µg/mL

The first 12 rows once more:

SMILES	setting	strain or isolate	dose	read by	mutations	measure	value
S=C(Nc1ccccc1)c1ccc(Cl)cc1		H37Rv				MIC	125 µM
CC(=O)NS(=O)(=O)c1ccc(NC(=O)COC(=O)c2cccc3c(=O)c4ccccc4[nH]c23)cc1		H37Rv		resazurin		MIC bound	>6.25 µg/mL
COc1cc(Cc2cnc(N)nc2N)cc(OC)c1OC		H37Rv				MIC	>100 µM
c1ccc(CSc2nc3ccccc3o2)nc1		My 331/88				MIC	32 µM
Cc1ccc(C(=S)Nc2ccc(Br)cc2)cc1		H37Rv				MIC	125 µM
CCN(CC)CC(=O)N/N=C\C(=O)c1ccc(-c2ccccc2)cc1						MIC	>50 µg/mL
CCNC(=S)N/N=C(\c1ccccc1)c1ccccn1		H37Rv	12.5 µg/mL	BACTEC		inhibition	88%
CON=C1CCN(c2nc(=O)c3cc(C(F)(F)F)cc([N+](=O)[O-])c3s2)CC1		H37Rv		resazurin		MIC90	0.029 µg/mL
CO[C@H]1/C=C/O[C@@]2(C)Oc3c(C)c(O)c4c(O)c(cc(O)c4c3C2=O)NC(=O)/C(C)=C\C=C\[C@H](C)[C@H](O)[C@@H](C)[C@@H](O)[C@@H](C)[C@H](OC(C)=O)[C@@H]1C		H37Rv (amithiozone-resistant)				MIC	6.3 µg/mL
O=[N+]([O-])c1cn2c(n1)OC[C@@H](OCc1ccc(C#Cc3ccc(C(F)(F)F)nc3)nc1)C2				resazurin		MIC90	0.7 µM
Cc1ccc2[nH]c3c(C)c4ccncc4c(C)c3c2c1		H37Rv		resazurin / fluorescence		MIC	>100 µM
O=C(CN1CCCC1)N/N=C\C(=O)c1ccc(Oc2ccccc2)cc1						MIC	>50 µg/mL

Percent inhibition refers to the dose given; in toxicity tests it is the harm to the cells. MIC bound comes from a single tested concentration. Blank or dashed fields: not listed here. A number after MIC or MFC names an inhibition level or a share of isolates.